A mixed list of measured activities; the numbers were collected in NIAID ChemDB.

All rows: host cell toxicity; cells: HepG2.117; read by: luminescence; read-out: CC50

CCn: concentration that lowers growth or viability of the cells by n%. Lines come from different laboratories, so protocols vary.

| compound | result |
|---|---|
| Cc1[nH]nc2c1CCn1nc3c(c1-2)CN(C(=O)c1ccc(Cl)c(Cl)c1)CC3 | >50 µg/mL |
| CNc1cnc(-n2c(-n3nc(C)cc3C)nc3c(c2=O)C[C@@H](C)N(C(=O)c2ccc(Br)c(C(F)(F)F)c2)C3)nc1 | >0.5 µM |
| C=C[C@H](C)Nc1nc2c(c(=O)n1-c1ccc(C(=O)N(C)C(=O)OCOC(=O)C[C@H](O)C(=O)O)cc1)C[C@@H](C)N(C(=O)c1ccc(Br)c(C(F)(F)F)c1)C2 | >50 µM |
| C[C@@H]1Cc2nn3c(c2CN1C(=O)c1ccc(Cl)c(Cl)c1)C(=O)N([C@H](C)c1ccc(NS(C)(=O)=O)cc1)CC3 | 42 µM |
| C=C[C@H](C)Nc1nc2c(c(=O)n1-c1ccc(C(=O)N(C)C(=O)O[C@H](OC(=O)[C@@H](N)C(C)C)C(C)C)cc1)C[C@@H](C)N(C(=O)c1ccc(Br)c(C(F)(F)F)c1)C2 | >50 µM |
| Cc1c(C(=O)N2Cc3c(nn4c3C(=O)N([C@@H](C)c3ccc(OC(F)F)cc3)CC4)C[C@H]2C)ccc(Cl)c1C#N | >50 µM |
| CC(=O)Nc1cccc([C@H](C)N2CCn3nc4c(c3C2=O)CN(C(=O)c2ccc(Cl)c(C#N)c2)[C@H](C)C4)c1 | >50 µM |
| Cc1cc(C)n(-c2nc3c(c(=O)n2-c2ccc(N4CCNCC4)nc2)C[C@@H](C)N(C(=O)c2ccc(Br)c(C(F)(F)F)c2)C3)n1 | >0.5 µM |
| C[C@@H]1Cc2nn3c(c2CN1C(=O)c1ccc(Cl)c(C#N)c1)C(=O)N(Cc1ccc(S(F)(F)(F)(F)F)cc1)CC3 | 14.2 µM |
| CNC(=O)c1ccc(N2C(=NCc3ccccc3-c3ccccn3)NC3=C(C[C@@H](C)N(C(=O)c4ccc(Br)c(C(F)(F)F)c4)C3)C2O)c(Cl)c1 | >50 µM |
| Cc1cc(C)n(-c2nc3c(c(=O)n2-c2ccc4c(c2)ncn4CC(F)F)C[C@@H](C)N(C(=O)c2ccc(Br)c(C(F)(F)F)c2)C3)n1 | >0.5 µM |
| C[C@@H]1Cc2nn3c(c2CN1C(=O)c1ccc(Cl)c(C#N)c1)C(=O)N([C@@H](C)c1cccc(OC(F)(F)F)c1)CC3 | >50 µM |
| Cc1cc(C)n(-c2nc3c(c(=O)n2-c2cc(F)c4ncn(C)c4c2)C[C@@H](C)N(C(=O)c2ccc(Br)c(C(F)(F)F)c2)C3)n1 | >0.5 µM |
| CC(=O)Nc1cccc([C@@H](C)N2CCn3nc4c(c3C2=O)CN(C(=O)c2ccc(Cl)c(Cl)c2)[C@H](C)C4)c1 | 23.1 µM |
| C[C@@H]1Cc2nn3c(c2CN1C(=O)c1ccc(Cl)c(C#N)c1Cl)C(=O)N([C@H](C)c1ccc(OC(F)F)cc1)CC3 | >50 µM |
| C[C@@H]1Cc2nn3c(c2CN1C(=O)c1ccc(Cl)c(Cl)c1)C(=O)N([C@@H](C)c1ccc(NS(C)(=O)=O)cc1)CC3 | >50 µM |
| Cc1cc(C)n(-c2nc3c(c(=O)n2-c2ccc(NC(C)C)nc2)C[C@@H](C)N(C(=O)c2ccc(Br)c(C(F)(F)F)c2)C3)n1 | >0.5 µM |
| C=C[C@H](C)Nc1nc2c(c(=O)n1-c1ccc(C(=O)N(C)C(=O)O[C@@H](C)OC(=O)[C@@H](N)C(C)C)cc1)C[C@@H](C)N(C(=O)c1ccc(Br)c(C(F)(F)F)c1)C2 | >50 µM |
| C[C@@H]1Cc2nn3c(c2CN1C(=O)c1ccc(Cl)c(C#N)c1)C(=O)N([C@@H](C)c1ccc(OC(F)(F)F)cc1)CC3 | 25 µM |

For reference, 2 entries again:

compound,result
Cc1cc(C)n(-c2nc3c(c(=O)n2-c2cc(F)c4ncn(C)c4c2)C[C@@H](C)N(C(=O)c2ccc(Br)c(C(F)(F)F)c2)C3)n1,>0.5 µM
CC(=O)Nc1cccc([C@H](C)N2CCn3nc4c(c3C2=O)CN(C(=O)c2ccc(Cl)c(C#N)c2)[C@H](C)C4)c1,>50 µM